Article doi:10.1101/2020.03.20.000240

Assays:
[1] = test system: DdrR (Acinetobacter baumannii ATCC 17978); assay: SPR
[2] = test system: UmuDAb (Acinetobacter baumannii ATCC 17978); assay: SPR

| Sequence | binding result ([1]; 160 nM DdrR) | binding result ([2]; no DdrR, 2-16 nM UmuDAb, KD only shown in figure) | binding result ([2]; preincubated with 10x DdrR, affinity increased) | binding result ([1]; DdrR alone) | binding result ([2]; no DdrR) | binding result ([2]; premixed with DdrR, enhanced) |
| --- | --- | --- | --- | --- | --- | --- |
| GTTACTACTCGAGCGTCGTCAACTTGAAAATGTAACTTTTTCAAGTTACATT / AATGTAACTTGAAAAAGTTACATTTTCAAGTTGACGA / CGCTCGAGTAGTAAC [umuDAb-ddrR operator (A1S_1389)] | no binding | binds | binds |  |  |  |
| GTTACTACTCGAGCGTCGTCAACTTGAATATGTTACAAAATCAAGTTACATT / AATGTAACTTGATTTTGTAACATATTCAAGTTGACGA / CGCTCGAGTAGTAAC [A1S_1174 operator (umuDC)] |  |  |  | no binding | binds | binds |
| GTTACTACTCGAGCGTCGTCAACTTGAATTTGTTACGATTTCAAGTTACATT / AATGTAACTTGAAATCGTAACAAATTCAAGTTGACGA / CGCTCGAGTAGTAAC [A1S_2015 operator (umuDC)] |  |  |  | no binding | binds | binds |
| GTTACTACTCGAGCGTCGTCAACTTGATTATGTTACAAATTCAAGTTACATT / AATGTAACTTGAATTTGTAACATAATCAAGTTGACGA / CGCTCGAGTAGTAAC [A1S_2008 operator (umuDC)] |  |  |  | no binding | binds | binds |
| GTTACTACTCGAGCGTCGTCAACTTGATTACGTTACGTTTTCAAGTTACATT / AATGTAACTTGAAAACGTAACGTAATCAAGTTGACGA / CGCTCGAGTAGTAAC [A1S_0636 operator (umuDC)] |  |  |  | no binding | binds | binds |

Construct, isoform or probe ends are uncertain for at least one entry. For part of these data: A negative result means that nothing was seen under these conditions. At least one verdict rests on a figure or table, not on a statement of the authors.
